A mixed list of measured activities; the numbers were collected in NIAID ChemDB.

All rows: toxicity to cultured cells; cell line: HFF; read-out: CC50

Neighbouring rows are from separate reports.

{"SMILES": "CCCCCOc1nc(N)nc2c1ncn2/C=C1/C[C@@H]1CO", "value": "178 µM"}
{"SMILES": "COC(=O)C(C)NP(=O)(OC[C@@H]1C/C1=C\\n1cc(N)c(=O)[nH]c1=O)Oc1ccccc1", "value": ">100 µM"}
{"SMILES": "CN(C)c1nc2cc(Cl)c(Cl)cc2n1COCCO", "method": "visual reading", "value": ">100 µM"}
{"SMILES": "CC(C)COc1nc(N)nc2c1ncn2/C=C1/C[C@@H]1CO", "method": "neutral red", "value": ">300 µM"}
{"SMILES": "O=C(c1ccc(Oc2ccc(Cl)cc2O)s1)N1CCNCC1", "value": ">10 µM"}
{"SMILES": "CN(C)c1nc2cc(Cl)c(Cl)cc2n1COC(CO)CO", "method": "visual reading", "value": ">100 µM"}
{"SMILES": "COC(=O)C(C)NP(=O)(OC[C@@H]1C/C1=C/n1cc(C)c(=O)[nH]c1=O)Oc1ccccc1", "value": ">300 µM"}
{"SMILES": "CCCSc1nc(N)nc2c1ncn2/C=C1/C[C@@H]1CO", "method": "neutral red", "value": ">300 µM"}
{"SMILES": "OCCOCn1c(Br)nc2c(Cl)cc(Cl)cc21", "method": "visual reading", "value": ">100 µM"}
{"SMILES": "Oc1cc(Cl)ccc1Oc1ccc(C(F)(F)F)cc1Cl", "value": ">10 µM"}
{"SMILES": "OCC(CO)OCn1c(Cl)nc2c(Cl)c(Cl)ccc21", "method": "visual reading", "value": ">100 µM"}
{"SMILES": "CC(N=[N+]=[N-])c1cn([C@H]2C[C@H](O)[C@@H](CO)O2)c(=O)[nH]c1=O", "value": ">250 µM"}
{"SMILES": "OCC(CO)OCn1cnc2c(Cl)c(Cl)ccc21", "method": "visual reading", "value": ">100 µM"}
{"SMILES": "Nc1nc(NC2CC2)c2ncn(/C=C3/C[C@@H]3CO)c2n1", "value": "367 µM"}
{"SMILES": "COc1nc(N)nc2c1ncn2/C=C1/C[C@@H]1CO", "method": "neutral red", "value": ">300 µM"}
{"SMILES": "O[C@@H]1[C@H](O)[C@H](O)CO[C@H]1n1c(Br)nc2cc(Cl)c(Cl)cc21", "value": "158 µM"}
{"SMILES": "CCCCCCCCSc1nc(N)nc2c1ncn2/C=C1/C[C@@H]1CO", "method": "neutral red", "value": "164 µM"}
{"SMILES": "C=CCOc1nc(N)nc2c1ncn2/C=C1/C[C@@H]1CO", "value": ">366 µM"}
{"SMILES": "COC(=O)C(C)NP(=O)(OC[C@@H]1C/C1=C\\n1cc(C)c(=O)[nH]c1=O)Oc1ccccc1", "value": ">100 µM"}
{"SMILES": "OCCOCn1c(Cl)nc2c(Cl)cc(Cl)cc21", "method": "visual reading", "value": ">100 µM"}
{"SMILES": "OC[C@H]1O[C@@H](n2c(Br)nc3cc(Cl)c(Cl)cc32)[C@H](O)[C@@H]1O", "value": "151 µM"}
{"SMILES": "[N-]=[N+]=NC(CI)c1cn([C@H]2C[C@H](O)[C@@H](CO)O2)c(=O)[nH]c1=O", "value": "76 µM"}
{"SMILES": "Nc1nc(NCc2ccccc2)c2ncn(/C=C3/C[C@@H]3CO)c2n1", "value": ">310 µM"}
{"SMILES": "[N-]=[N+]=NC(CBr)c1cn([C@H]2C[C@H](O)[C@@H](CO)O2)c(=O)[nH]c1=O", "value": "91 µM"}
{"SMILES": "O=S(=O)(c1ccc(Oc2ccc(Cl)cc2O)cc1)N1CCCCC1", "value": ">10 µM"}
{"SMILES": "Nc1ncnc2ncn(/C=C3/C(F)C3(CO)CO)c12", "value": ">300 µM"}
{"SMILES": "CN1CCN(Cc2ccc(Oc3ccc(Cl)cc3O)cc2)CC1", "value": ">10 µM"}
{"SMILES": "Nc1nc2c(ncn2/C=C2/C[C@@H]2CO)c(=O)[nH]1", "value": "390 µM"}
{"SMILES": "O=c1[nH]c(=O)n([C@H]2C[C@H](O)[C@@]3(CO)CC23)cc1/C=C/Br", "value": ">200 µM"}
{"SMILES": "CCCOc1nc(N)nc2c1ncn2/C=C1/C[C@@H]1CO", "method": "neutral red", "value": ">300 µM"}

Repeating the first 4 entries:

CCCCCOc1nc(N)nc2c1ncn2/C=C1/C[C@@H]1CO ; value: 178 µM
COC(=O)C(C)NP(=O)(OC[C@@H]1C/C1=C\n1cc(N)c(=O)[nH]c1=O)Oc1ccccc1 ; value: >100 µM
CN(C)c1nc2cc(Cl)c(Cl)cc2n1COCCO ; method: visual reading ; value: >100 µM
CC(C)COc1nc(N)nc2c1ncn2/C=C1/C[C@@H]1CO ; method: neutral red ; value: >300 µM

CCn is the concentration with n% toxicity to the cells.